A mixed list of measured activities; the numbers were collected in NIAID ChemDB.

Shared fields: whole-cell or culture tests; organism: Mycobacterium tuberculosis

Conditions beyond the fields shown may differ between rows. Blank or dashed fields: not listed here. MIC bound comes from a single tested concentration. a–b is a range or a potency band. A number after MIC or MFC names an inhibition level or a share of isolates. ECn: concentration that inhibits the pathogen or its effect by n%. Inhibition is in % at the dose shown (toxicity tests: loss of growth or viability).

smiles	method	strain	read-out	tested at	cell line	mutations	value
O=C(ON=C1c2ccccc2C(Br)C(Br)c2ccccc21)c1cc([N+](=O)[O-])cc([N+](=O)[O-])c1	BACTEC	H37Rv	MIC bound				>12.5 µg/mL
COc1ccc(Cc2c(C)c(C#N)c3[nH]c4ccccc4n3c2=O)cc1	resazurin	V4207	MIC90				0.5–2 µg/mL
Cc1cc(C)c(Cn2cc(/C=N\N=C(/N)c3ccc4ccccc4n3)c3ccccc32)c(C)c1		H37RV (INH RMP OFL-S)	MIC				>128 µg/mL
CCCCCn1c(=O)c2c3c(cnc2n(CCCCC)c1=O)C(=O)C1=C(C3=O)C2CCC1C2	luminescence	H37Rv	EC90			pSMT1 luciferase reporter plasmid	4.09 µg/mL
NC(CCCCC(=O)O)C(=O)O		H37Rv	MIC				>1000 µg/mL
CC(=O)N[C@H]1[C@@H](O[C@@H]2O[C@H](C[C@@H](O)[C@H]3O[C@@H](n4ccc(=O)[nH]c4=O)[C@H](O)[C@@H]3O)[C@H](O)[C@H](O)[C@H]2NC(=O)/C=C/CC(C)C)O[C@H](CO)[C@@H](O)[C@@H]1O		EMB-R	MIC				1.6 µg/mL
C=C(C)CC[C@H]1CN(c2ccn(N3CCOCC3)c2)C(=O)O1		ATCC 35820 (streptomycin-resistant)	MIC50				>100 µM
COc1ccc(/C=N/NC(=O)c2cnc3cc(F)ccc3c2NC(CSc2ccccc2)CC(=O)N(C)C)cc1	resazurin	H37Rv	MIC				10 µg/mL
O=C1CSC(c2cccc(Cl)c2Cl)N1NC1=Nc2ccccc2Sc2ccccc21	broth dilution	H37Rv	MIC				500 µg/mL
Cc1ccc(Nc2cc(=S)nc(N)[nH]2)cc1Cl	BACTEC	H37Rv	MIC bound				>12.5 µg/mL
CCOC(=O)CCCCC/C=N/NC(N)=S		H37Rv	MIC				50–100 µg/mL
Cc1ccc(OCc2cn(-c3ccc(OC[C@@]4(C)Cn5cc([N+](=O)[O-])nc5O4)cc3)nn2)cc1	broth dilution / resazurin	H37Rv	MIC				0.54 µM
CCn1cc(C(=O)O)c(=O)c2cc(F)c(N3CCN(CC(=O)c4ccc(F)cc4)CC3)cc21		H37Rv	EC50		VERO		<6.25 µg/mL
N/C(=N\N=C/c1cn(Cc2ccccc2)c2ccccc12)c1ccccn1		H37RV (INH RMP OFL-S)	MIC				8 µg/mL
O=C1[C@H](Cl)[C@@H](c2ccc(Cl)cc2)N1NC1=Nc2ccccc2Sc2ccccc21	broth dilution	H37Rv	MIC				100 µg/mL
CCOc1ccc(N2C(=O)/C(=C/c3ccc(O)cc3)S/C2=N\c2ccccn2)cc1		H37Rv	MIC				≥25 µg/mL
N/C(=N\N=C/c1cn(Cc2ccc(Cl)cc2)c2ccccc12)c1ccc2ccccc2n1		H37RV (INH RMP OFL-S)	MIC				>128 µg/mL
CSc1ccccc1/C=N/NC(=O)c1cnc2cc(F)ccc2c1NC(CSc1ccccc1)CC(=O)N(C)C	resazurin	H37Rv	MIC				>100 µg/mL
Nc1cc2ncccc2c2ncccc12	BACTEC	H37Rv	MIC				≥12.5 µg/mL
CC1COc2c(N3CCN(C)CC3)c(F)cc3c(=O)c(C(=O)O)cn1c23		100 isolates	MIC50				2 µg/mL
C[C@]1(COc2ccc(-c3cc(-c4ccccc4C(F)(F)F)on3)cc2)Cn2cc([N+](=O)[O-])nc2O1	broth dilution / resazurin	ss18b non-replicating phase	MIC				>32 µM
Cc1c(Cc2cccc(Cl)c2)c(=O)n2c([nH]c3ccccc32)c1C#N	broth dilution	H37Rv	MIC				>128 µg/mL
C=CCN1C(=O)/C(=C\C=C\c2ccccc2)S/C1=N\c1nc2ccccc2s1		H37Rv	MIC				≥25 µg/mL
CC(C)=CC[C@H](O)C1=CC(=O)c2c(O)ccc(O)c2C1=O		H37Rv	MIC				6.4 µg/mL
C[C@]1(COc2ccc(-c3cc(COc4ccc(F)cc4)on3)cc2)Cn2cc([N+](=O)[O-])nc2O1	broth dilution / resazurin	ss18b non-replicating phase	MIC				2.15 µM
C=CCN1C(=O)S/C(=C/c2ccccc2)C1=O		H37Rv	MIC				≥25 µg/mL
N/C(=N\N=C/c1c[nH]c2ccccc12)c1ccc2ccccc2n1		H37RV (INH RMP OFL-S)	MIC				16 µg/mL
CCCCn1c(=O)c2c3c(cnc2n(CCCC)c1=O)C(=O)C1=C(C3=O)C2CCC1C2	luminescence	H37Rv	EC90			pSMT1 luciferase reporter plasmid	4.59 µg/mL
O=C(O)c1cn(C2CC2)c2cc(N3CCN(C/C(=N/O)c4ccccc4)CC3)c(F)cc2c1=O		H37Rv	EC50		VERO		<6.25 µg/mL
COc1ccc(/C=N/NC(=O)c2cnc3cccc(C(F)(F)F)c3c2NC(CSc2ccccc2)CC(=O)N(C)C)c(F)c1	resazurin	H37Rv	MIC				10 µg/mL
CN[C@@H]1[C@H](O)[C@H](NC)[C@H]2O[C@@]3(O)C(=O)C[C@@H](C)O[C@H]3O[C@@H]2[C@H]1O	BACTEC	H37Rv	inhibition	12.8 µg/mL			44%
COc1ccc(C(=O)CN2CCN(c3cc4c(cc3F)c(=O)c(C(=O)O)cn4C3CC3)CC2)cc1		H37Rv	EC50				>6.25 µg/mL
NNC(=O)CCC1CCC(=O)N1		H37Rv	MIC				>50 µg/mL
CN(C)C(=O)CC(CSc1ccccc1)Nc1c(C(=O)N/N=C/c2cccnc2)cnc2cc(F)ccc12	resazurin	H37Rv	MIC				5 µg/mL
N/C(=N\N=C/c1cn(Cc2ccc(Cl)cc2)c2ccccc12)c1ccccn1		H37RV (INH RMP OFL-S)	MIC				32 µg/mL
Cc1c(Cc2cccc(C(F)(F)F)c2)c(=O)n2c([nH]c3ccccc32)c1C#N	resazurin	H37Rv	MIC90				>128 µg/mL
CCn1c(=O)c2c3c(cnc2n(CC)c1=O)C(=O)C1=C(C3=O)C2CCC1CC2	luminescence	H37Rv	EC90			pSMT1 luciferase reporter plasmid	4.33 µg/mL
N/C(=N\N=C/c1cn(Cc2ccccc2Br)c2ccccc12)c1ccc2ccccc2n1		H37RV (INH RMP OFL-S)	MIC				>128 µg/mL
CN(C)C(=O)CC(CSc1ccccc1)Nc1c(C(=O)N/N=C/c2ccc(Br)s2)cnc2cc(F)ccc12	resazurin	H37Rv	MIC				>100 µg/mL
O=C1OC(c2ccccc2)=N/C1=C\c1ccc([N+](=O)[O-])cc1	BACTEC	H37Rv	MIC bound				>12.5 µg/mL
O=C1CSC(c2cccc([N+](=O)[O-])c2)N1NC1=Nc2ccccc2Sc2ccccc21	broth dilution	H37Rv	MIC				250 µg/mL
CCCCCCCCCC(=O)N[C@H]1[C@H](Oc2c3cc4cc2Oc2ccc(cc2Cl)[C@@H](O[C@@H]2O[C@H](CO)[C@@H](O)[C@H](O)[C@H]2NC(C)=O)[C@@H]2NC(=O)[C@H](NC(=O)[C@@H]4NC(=O)[C@H]4NC(=O)[C@@H](Cc5ccc(c(Cl)c5)O3)NC(=O)[C@H](N)c3ccc(O)c(c3)Oc3cc(O)cc4c3)c3ccc(O)c(c3)-c3c(O[C@H]4O[C@H](CO)[C@@H](O)[C@H](O)[C@@H]4O)cc(O)cc3[C@H](C(=O)O)NC2=O)O[C@H](CO)[C@@H](O)[C@@H]1O		L1910	MIC				32 µg/mL
CC(=O)O/N=C1/C=Cc2c(no[n+]2[O-])C1=O	resazurin	H37Rv	MIC bound				>6.25 µg/mL
CCn1cc(C(=O)O)c(=O)c2cc(F)c(N3CCN(C/C(=N/O)c4ccc(Br)cc4)CC3)cc21		H37Rv	inhibition	6.25 µg/mL			16%
O=C(O)CCC(=O)CCC(=O)O		H37Rv	MIC				>400 µg/mL
COC(=O)C1=NC(=N)N=C(C(=O)OC)C12C(=O)Cc1ccccc12	BACTEC	H37Rv	MIC bound				>12.5 µg/mL
CCn1cc(C(=O)O)c(=O)c2cc(F)c(N3CCN(CC(=O)c4ccc(F)cc4)CC3)nc21		H37Rv	EC50				>6.25 µg/mL
COc1ccc(/C=N/NC(=O)c2cnc3cccc(C(F)(F)F)c3c2NC(CSc2ccccc2)CC(=O)N(C)C)cc1	resazurin	H37Rv	MIC				>100 µg/mL
Cc1c(C(=O)/C=C/c2ccccc2[N+](=O)[O-])[n+](=O)c2ccccc2n1[O-]		ETA-R	MIC				6.3 µg/mL
CCCCCCCC/C=N/NC(=O)c1cnc2cccc(C(F)(F)F)c2c1NC(CSc1ccccc1)CC(=O)N(C)C	resazurin	H37Rv	MIC				1.25 µg/mL
CC(C)CCCC(C)C1CCC2C3CCC4CC(NC(=O)CNCCCSC(C)C)CCC4(C)C3CCC12C	resazurin	H37Rv	inhibition	6.25 µg/mL			95%
C[C@]1(COc2cccc(-n3cc(COc4ccc(F)cc4)nn3)c2)Cn2cc([N+](=O)[O-])nc2O1	broth dilution / resazurin	H37Rv	MIC				1.07 µM
COc1cc2c(cc1OC)C(c1cc(OC)c(OC)c(OC)c1)C1(O)C(=O)OCC1(O)C2	BACTEC	H37Rv	MIC				≥12.8 µg/mL
NCC[C@H](O)C(=O)N[C@@H]1C[C@H](N)[C@@H](O[C@H]2O[C@H](CN)[C@@H](O)[C@H](O)[C@H]2O)[C@H](O)[C@H]1O[C@H]1O[C@H](CO)[C@@H](O)[C@H](N)[C@H]1O	broth dilution / resazurin	MDR5	MIC				1 µg/mL
O=C1OC(c2ccccc2)=N/C1=C\c1cc2c(cc1[N+](=O)[O-])OCO2	BACTEC	H37Rv	inhibition	12.5 µg/mL			16%
CNC1CCCN(c2c(F)cc3c(=O)c(C(=O)O)cn(C4CC4)c3c2OC)C1		100 isolates	MIC90				2 µg/mL
CCOc1nc(=O)n([C@@H]2O[C@H](CO)[C@@H](O)[C@H]2O)s1	BACTEC	H37Rv	inhibition	12.5 µg/mL			11%
Cc1ccccc1OCc1cc(-c2ccc(OC[C@@]3(C)Cn4cc([N+](=O)[O-])nc4O3)cc2)no1	broth dilution / resazurin	H37Rv	MIC				4.33 µM
NNC(=O)CCC1=NNC(=O)CC1		H37Rv	MIC				>500 µg/mL
CCCCCn1c(=O)c2c3c(cnc2n(CCCCC)c1=O)C(=O)C1=C(C3=O)C2CCC1CC2	luminescence	H37Rv	EC90			pSMT1 luciferase reporter plasmid	4.78 µg/mL
C=CCN1C(=O)/C(=C/c2ccc(C)cc2)S/C1=N\c1nc2ccccc2s1		H37Rv	MIC				≥25 µg/mL
COC(=O)C(=O)c1c(C(=O)OC)nc2[nH]n(-c3ccccc3)c(=O)c2c1Cc1ccccc1	BACTEC	H37Rv	MIC				≥12.5 µg/mL
CCOc1ccc(N2C(=O)/C(=C/c3ccc(C)cc3)S/C2=N\c2ccccn2)cc1		H37Rv	MIC				≥25 µg/mL
CCOC(=O)NN(C(=O)OCC)C(=C(C1CCCCC1)N1CCOCC1)N(NC(=O)OCC)C(=O)OCC	BACTEC	H37Rv	MIC bound				>12.5 µg/mL
COc1cc([C@@H]2[C@@H](Cl)C(=O)N2NC2=Nc3ccccc3Sc3ccccc32)cc(OC)c1OC	broth dilution	H37Rv	MIC				250 µg/mL
CCCCNC(=S)S	BACTEC	H37Rv	MIC				≥12.5 µg/mL
N/C(=N\N=C/c1cn(Cc2cccc(Cl)c2)c2ccccc12)c1ccccn1		H37RV (INH RMP OFL-S)	MIC				8 µg/mL
C=CCN1C(=O)/C(=C\c2ccccn2)S/C1=N\c1nc2ccccc2s1		H37Rv	MIC				≥25 µg/mL
CCOC(=O)c1c(C)[nH]c(C(c2ccccc2)c2[nH]c(C)c(C(=O)OCC)c2C)c1C	BACTEC	H37Rv	MIC bound				>12.5 µg/mL
NNC(=O)CCCc1c(C(=O)NN)[nH]c2ccccc12		H37Rv	MIC				60 µg/mL
COc1ccc(-c2coc3c4c(c(CC=C(C)C)c(OC)c3c2=O)OC(C)(C)C=C4)cc1OC	BACTEC	H37Rv	inhibition	12.5 µg/mL			23%
CC(C)C1CCc2ncc3c(c2C1=O)C(=O)C1=C(C3=O)C2CCC1C2	luminescence	H37Rv	EC99			pSMT1 luciferase reporter plasmid	39.2 µg/mL
O=C1C=C(Nc2ccc(S(=O)(=O)c3ccc(NC4=CC(=O)C(=O)c5ccccc54)cc3)cc2)c2ccccc2C1=O	resazurin	H37Rv	inhibition	6.25 µg/mL			43%
Cc1ccc(C2SCC(=O)N2NC2=Nc3ccccc3Sc3ccccc32)cc1	broth dilution	H37Rv	MIC				1000 µg/mL